Laboratory results as given in the supplement of paper PMC9931576.
Human monoclonal antibodies against the spike receptor-binding domain (heavy:light variable regions). IC50 against pseudoviruses bearing the spike of naturally observed variants; lower = stronger; >10 µg/ml means not reached at the top dose. No active / inactive call. The stated detection limit is 0.0005 µg/ml; values near or below 0.001 µg/ml lie at the floor of the assay.

B1: BD56-598 (protein)
chain 1: QLQLQESGPGLVKPSETLSLTCTVSGDSISGSFSYWGWIRQPPGKGLEWIGTIYYSGSTYYNPSLKSRVTISVDTSKNQFSLKLSSLTAADTAVYYCARTPSILWWGQFDYWGQGTLVTVSS
chain 2: NFMLTQPHSVSESPGKTVTISCTGSSGSIASNYVQWYQQRPGSAPTNVIYEDNQRPSGVPDRFSGSIDRSSNSASLTISGLKTEDEADYYCQSYDSNKLVVFGGGTKLTVL
B2: BD56-593 (protein)
chain 1: QMQLVQSGPEVKKPGASVKLSCKASGFTFTTSSIQWVRQARGQRLEWIGWIVVGSDNADYAPKFQERVTLTRDVSTSTASLELSSLRSDDTAVYYCAAPHCNTTSCYDGFDLWGQGTMVSVSS
chain 2: EIVLTQSPDTLSLSPGQRATLSCRASQTVRSAYFAWYQQKPGQAPRLLMFDTSSRATGIPDRFSGSGSGTDFILTISRLEPEDFAVYYCQQYGRSPWTFGQGTKVEIK
B3: BD56-580 (protein)
chain 1: QVQLVESGGGVVQPGRSLRLSCAASGFTFSSYGMHWVRQGPGKGLEWVAVIWNDGSGKHYADSVKGRFSISRDNSKNMVYLQMNSLRSEDTAVYFCARDYGDYTTLFDSWGQGTLVTV
chain 2: DIQMTQSPSSLSASVGDRVTITCRASQSIRRFLNWYQHKPGKAPKLLIYGASSLQSGVPSRFSGSASGTEFTLTINNLQPEDFATYYCQQSYETPPWTFGQGTKVEI
B4: BD56-616 (protein)
chain 1: VQLVQSGAEVKRPGSSVRVSCKTSGGTFGGYTITWVRQAPGQGLEWMGRIIPILGVPYYAQKFQGRITMTADKSTSTAYMELSSLKSEDTAVYYCARDLRSGSSLGDCGQGTLVTVSS
chain 2: DIQMTQSPSSLSASVGDRVTITCQATQDITNYLNWYQQKPGKAPKLLIYDASNLETGVPSRFSGSGSGTEFTFTISSLQPEDIGTYYCQQYADLLSLTFGGGTKVEIK
B5: BD56-569 (protein)
chain 1: QVQLVESGGGVVQPGRSLRLSCAASGFSFSSYGMHWVRQAPGKGLEWVAVIGDDGSIKLYADSVKGRFTISRDNSKNTLYLQMNGLRPEDTAVYFCARDYGAVVTLFDYWGQGTLVTVSS
chain 2: DIQMTQSPSSLSASVGDRVTITCRASQSVSTYLNWYQQKQGKAPKLLIYDASSLQSGVPSRFSGSGSGTDFTLTISSLQPEDFATYYCQQSYSTPPWTFGQGTKVDIK
B6: BD56-583 (protein)
chain 1: EVQLVESGGGLVQPGGSLRLSCAASGFTFSNYDMHWVRQGPERGLEWVSLIGTAGDTYYPDSVKGRFTISRENAKNSLYLQMNDLRAGDTAVYYCARATYDSSGFYGFFDCWGQGTLVTVSS
chain 2: DIQMTQSPSSLSASVGDRVTITCRASQTIRSYLNWYQQRPGKAPKVLIYAASTLQSGVPSRFSGSGSGTDFTLTISSLQPEDFATYYCQQSYITTSFTFGPGTKVDIK

These binders were tested against SARS-CoV-2 Omicron BA.1 spike pseudovirus (assay: pseudovirus neutralization IC50; higher = weaker neutralization).
Experimental: (§1)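 Single-round VSV luciferase pseudovirus mixed with antibody dilutions for 1 h and put on Huh-7 cells for about a day; IC50 from the dose curve.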
With B1 the “pseudovirus neutralization IC50” value was 2.2 µg/mL.
For B2, the “pseudovirus neutralization IC50” value was 0.001 µg/mL.
In the case of B3, the “pseudovirus neutralization IC50” value is reported as 1.52 µg/mL.
With B4 the “pseudovirus neutralization IC50” value was 0.0864 µg/mL.
With B5 the “pseudovirus neutralization IC50” value was 3.08 µg/mL.
With B6 the “pseudovirus neutralization IC50” value was 4.84 µg/mL.

The binders below were run against SARS-CoV-2 Omicron BA.2 spike pseudovirus in the same assay as above.
Experimental: as §1
B1 was tested, and the “pseudovirus neutralization IC50” value was 1.98 µg/mL.
In the case of B2, the “pseudovirus neutralization IC50” value is reported as 0.00073 µg/mL.
For B3, the “pseudovirus neutralization IC50” value was 2.7 µg/mL.
B4 was tested, and the “pseudovirus neutralization IC50” value was 0.069 µg/mL.
With B5 the “pseudovirus neutralization IC50” value was 4.75 µg/mL.
For B6, the “pseudovirus neutralization IC50” value was 5.08 µg/mL.

These binders were tested against SARS-CoV-2 Omicron BA.2.75 spike pseudovirus in the same assay as above.
Experimental: as §1
In the case of B1, the “pseudovirus neutralization IC50” value is reported as 3.13 µg/mL.
With B2 the “pseudovirus neutralization IC50” value was 0.00216 µg/mL.
In the case of B3, the “pseudovirus neutralization IC50” value is reported as 4.27 µg/mL.
For B4, the “pseudovirus neutralization IC50” value was 0.0597 µg/mL.
With B5 the “pseudovirus neutralization IC50” value was 5.66 µg/mL.
For B6, the “pseudovirus neutralization IC50” value was 4.79 µg/mL.

These binders were tested against SARS-CoV-2 Omicron BA.5 spike pseudovirus in the same assay as above.
Experimental: as §1
With B1 the “pseudovirus neutralization IC50” value was 1.52 µg/mL.
B2 was tested, and the “pseudovirus neutralization IC50” value was 1.52 µg/mL.
In the case of B3, the “pseudovirus neutralization IC50” value is reported as 3.1 µg/mL.
In the case of B4, the “pseudovirus neutralization IC50” value is reported as > 10 µg/mL.
For B5, the “pseudovirus neutralization IC50” value was 3.98 µg/mL.
For B6, the “pseudovirus neutralization IC50” value was 5.11 µg/mL.

The binders below were run against SARS-CoV-2 Omicron BQ.1.1 spike pseudovirus in the same assay as above.
Experimental: as §1
In the case of B1, the “pseudovirus neutralization IC50” value is reported as 1.92 µg/mL.
For B2, the “pseudovirus neutralization IC50” value was > 10 µg/mL.
For B3, the “pseudovirus neutralization IC50” value was 3.37 µg/mL.
For B4, the “pseudovirus neutralization IC50” value was > 10 µg/mL.
In the case of B5, the “pseudovirus neutralization IC50” value is reported as 5.12 µg/mL.
For B6, the “pseudovirus neutralization IC50” value was 6.06 µg/mL.

These binders were tested against SARS-CoV-2 Omicron XBB spike pseudovirus in the same assay as above.
Experimental: as §1
In the case of B1, the “pseudovirus neutralization IC50” value is reported as 1.83 µg/mL.
In the case of B2, the “pseudovirus neutralization IC50” value is reported as > 10 µg/mL.
In the case of B3, the “pseudovirus neutralization IC50” value is reported as 3.07 µg/mL.
In the case of B4, the “pseudovirus neutralization IC50” value is reported as 3.7 µg/mL.
With B5 the “pseudovirus neutralization IC50” value was 2.7 µg/mL.
For B6, the “pseudovirus neutralization IC50” value was 4.91 µg/mL.

These binders were tested against SARS-CoV-2 early D614G spike pseudovirus in the same assay as above.
Experimental: as §1
B1 was tested, and the “pseudovirus neutralization IC50” value was 0.874 µg/mL.
B2 was tested, and the “pseudovirus neutralization IC50” value was 0.00233 µg/mL.
With B3 the “pseudovirus neutralization IC50” value was > 10 µg/mL.
For B4, the “pseudovirus neutralization IC50” value was 0.122 µg/mL.
With B5 the “pseudovirus neutralization IC50” value was 1.21 µg/mL.
For B6, the “pseudovirus neutralization IC50” value was 2.77 µg/mL.
